# Values quoted from earlier work as cited in publication PMC8619967.
# pKd: −log10 of the molar value.
# Molecular target: HIV-1 capsid (Human immunodeficiency virus 1) (UniProt O93182)
substance,measurement,value
CPSF6 FG-motif (from UniProt Q16630),pKd,4.10
